Measured values as given in publication PMC3597823.

Tests used:
Test in all cases: SPR
[1] = molecular target: N1 fragment of murine PrP (residues 23–111), Myc-tagged (murine) (UniProt P04925)
[2] = molecular target: N1 fragment of murine PrP (residues 23–111), Myc-tagged (murine) (UniProt P04925); remark: listed apart in the source
[3] = molecular target: N1 fragment of murine PrP (residues 23–111), Myc-tagged (murine) (UniProt P04925); remark: listed apart in the source
[4] = molecular target: recombinant murine PrP (residues 23–230), Myc-tagged (murine) (UniProt P04925)

synthetic Aβ_(1–42) oligomers (Aβ-derived diffusible ligands) (from UniProt P05067) (peptide)
Kd [1]: 19.1 nM | koff [1]: 7.68e-05 s⁻¹ | kon [1]: 4030 M⁻¹ s⁻¹ | Kd [2]: 40.9 nM | koff [2]: 6.54e-05 s⁻¹ | Kd [3]: 17.3 nM | koff [3]: 7.44e-05 s⁻¹ | kon [3]: 4290 M⁻¹ s⁻¹ | Kd [4]: 30.1 nM | koff [4]: 5.21e-05 s⁻¹ | kon [4]: 1690 M⁻¹ s⁻¹

Read-outs that look alike come from different tables or passages of the source.
